Measurements reported in PubChem BioAssay AID1224833 (University of Georgia, 2016)
Test: 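Host factors restraining rotavirus as candidate antiviral genes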 (primary screen). Cells: monkey MA104 kidney cells. Reagents: siRNA pool against human genes, 50 nM. Time to read-out: 48 h knock-down before infection; read 24 h after infection. Conditions: infection with rotavirus strain RV3 two days after transfection; infectious dose for this stage not given. Read-out: 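Rotavirus antigen per well by fluorescent immunoassay, normalised to non-targeting control wells on each plate and given as a standard z-score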. Direction: z-score vs non-targeting control: higher = more rotavirus replication than with non-targeting control. Rule for the call: In these data the active calls have z-score vs non-targeting control at about -1 or lower, or at about 1 or higher. Calls: active = z-score beyond 1 either way; inactive = z-score within 1 of zero.
Shown is an unselected part of about 12,000 deposited reagents. About 5,600 of all reagents (46%) count as active. 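Active calls cover z-scores past 1 in both directions, so they include lowered as well as raised rotavirus replication.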

| gene | z-score vs non-targeting control | Outcome |
| --- | --- | --- |
| LIMS3 (LIM zinc finger domain containing 3) | -0.681 | inactive |
| ARCN1 (archain 1 coat protein complex I subunit delta) | -2.11 | active |
| RBPMS2 (RNA binding protein, mRNA processing factor 2) | 0.05 | inactive |
| ERH (ERH mRNA splicing and mitosis factor) | -0.386 | inactive |
| SIPA1L3 (signal induced proliferation associated 1 like 3) | -1.05 | active |
| TLCD5 (TLC domain containing 5) | 0.971 | inactive |
| SFT2D1 (SFT2 domain containing 1) | 0.758 | inactive |
| CYP2C19 (cytochrome P450 family 2 subfamily C member 19) | 0.798 | inactive |
| GPRASP2 (G protein-coupled receptor associated sorting protein 2) | -1.32 | active |
| TGDS (TDP-glucose 4,6-dehydratase) | 1.16 | active |
| SIRT4 (sirtuin 4) | 0.764 | inactive |
| THAP2 (THAP domain containing 2) | -0.474 | inactive |
| LRRC10 (leucine rich repeat containing 10) | -0.983 | inactive |
| OOSP2 (oocyte secreted protein 2) | 0.578 | inactive |
| ATG16L2 (autophagy related 16 like 2) | 0.454 | inactive |
| MRPL55 (mitochondrial ribosomal protein L55) | -0.216 | inactive |
| EPN2 (epsin 2) | -0.799 | inactive |
| SNAPC4 (small nuclear RNA activating complex polypeptide 4) | -0.474 | inactive |
| RMND5B (required for meiotic nuclear division 5 homolog B) | 1.94 | active |
| ANKRD20A1 (ankyrin repeat domain 20 family member A1) | -1.38 | active |
| LHB (luteinizing hormone subunit beta) | 0.0348 | inactive |
| BRCC3 (BRCA1/BRCA2-containing complex subunit 3) | -0.589 | inactive |
| POGK (pogo transposable element derived with KRAB domain) | 1.14 | active |
| UBAP1 (ubiquitin associated protein 1) | -0.146 | inactive |
| LRRTM3 (leucine rich repeat transmembrane neuronal 3) | -1.15 | active |
| LINC02915 (long independently transcribed non-coding RNA 2915) | -0.572 | inactive |
| SAR1B (secretion associated Ras related GTPase 1B) | -0.564 | inactive |
| PPP5C (protein phosphatase 5 catalytic subunit) | 3.76 | active |
| SPC24 (SPC24 component of NDC80 kinetochore complex) | 0.391 | inactive |
| SLC7A7 | -2.12 | active |
| OR6K3 (olfactory receptor family 6 subfamily K member 3) | 1.24 | active |
| ANKAR (ankyrin and armadillo repeat containing) | -0.621 | inactive |
| LHFPL6 (LHFPL tetraspan subfamily member 6) | 2.89 | active |
| APBB1IP | 1.19 | active |
| MYO1C (myosin IC) | -0.251 | inactive |
| BTNL3 (butyrophilin like 3) | -2.72 | active |
| MTCL2 (microtubule crosslinking factor 2) | 0.515 | inactive |
| SCAMP5 | 1.32 | active |
| GRIPAP1 (GRIP1 associated protein 1) | 0.0852 | inactive |
| OR4F21 (olfactory receptor family 4 subfamily F member 21) | -1.16 | active |
| NPAT (nuclear protein, coactivator of histone transcription) | -0.0641 | inactive |
| ST8SIA5 (ST8 alpha-N-acetyl-neuraminide alpha-2,8-sialyltransferase 5) | 0.94 | inactive |
| KRT2 (keratin 2) | -0.0309 | inactive |
| GPATCH1 (G-patch domain containing 1) | 0.034 | inactive |
| PCOTH (prostate and testis expressed opposite C1QTNF9B and MIPEP) | 1.32 | active |
| CFAP61 (cilia and flagella associated protein 61) | 0.285 | inactive |
| NMUR1 (neuromedin U receptor 1) | -1.36 | active |
| SH3YL1 (SH3 and SYLF domain containing 1) | -0.227 | inactive |
| TBX20 (T-box transcription factor 20) | -1.7 | active |
| SSX5 (SSX family member 5) | 1.82 | active |
| PLEKHO2 (pleckstrin homology domain containing O2) | -0.119 | inactive |
| TTC12 (tetratricopeptide repeat domain 12) | -0.266 | inactive |
| SLC2A14 | -1.24 | active |
| JMY (junction mediating and regulatory protein, p53 cofactor) | -0.289 | inactive |
| SLIRP (SRA stem-loop interacting RNA binding protein) | -1.01 | active |
| SH3BP1 (SH3 domain binding protein 1) | -0.672 | inactive |
| PINX1 (PIN2 (TERF1) interacting telomerase inhibitor 1) | -0.187 | inactive |
| FAM120AOS (family with sequence similarity 120 member A opposite strand) | 0.999 | inactive |
| PLAC4 (placenta associated 4) | 1.19 | active |
| RASSF1 (Ras association domain family member 1) | -2.48 | active |
| DVL3 (dishevelled segment polarity protein 3) | -3.11 | active |
| PCDHGA3 (protocadherin gamma subfamily A, 3) | 0.14 | inactive |
| SCAMP3 | 0.523 | inactive |
| CAPN13 (calpain 13) | -1.06 | active |
| ENTPD6 (ectonucleoside triphosphate diphosphohydrolase 6) | -0.52 | inactive |
| DCDC1 (doublecortin domain containing 1) | 0.0881 | inactive |
| LAIR2 (leukocyte associated immunoglobulin like receptor 2) | -1.2 | active |
| CYP2U1 (cytochrome P450 family 2 subfamily U member 1) | -1.15 | active |
| PNKD (PNKD metallo-beta-lactamase domain containing) | -2.82 | active |
| ZNF26 (zinc finger protein 26) | -1.71 | active |
| ARID2 (AT-rich interaction domain 2) | -0.917 | inactive |
| TMEM161B (transmembrane protein 161B) | -1.3 | active |
| CERS3 (ceramide synthase 3) | -1.65 | active |
| MRPS2 (mitochondrial ribosomal protein S2) | 1.21 | active |
| AVPI1 (arginine vasopressin induced 1) | -0.422 | inactive |
| MICU1 (mitochondrial calcium uptake 1) | -0.442 | inactive |
| POR (cytochrome p450 oxidoreductase) | 1.81 | active |
| BNC2 (basonuclin zinc finger protein 2) | -0.0681 | inactive |
| LRRC46 (leucine rich repeat containing 46) | 1.3 | active |
| PCBP4 (poly(rC) binding protein 4) | -0.866 | inactive |
| KLHL10 (kelch like family member 10) | -0.606 | inactive |
| VPS4A (vacuolar protein sorting 4 homolog A) | -1.15 | active |
| GOLGA8B (golgin A8 family member B) | -0.882 | inactive |
| WFDC13 (WAP four-disulfide core domain 13) | 0.138 | inactive |
| USP33 (ubiquitin specific peptidase 33) | -0.89 | inactive |
| APOL1 (apolipoprotein L1) | -1.69 | active |
| ARPC1A (actin related protein 2/3 complex subunit 1A) | -1.3 | active |
| CLDN9 (claudin 9) | -1.16 | active |
| RAVER2 (ribonucleoprotein, PTB binding 2) | -1.59 | active |
| SMAD4 (SMAD family member 4) | -1.26 | active |
| COMTD1 (catechol-O-methyltransferase domain containing 1) | -0.979 | inactive |
| DNAJC27 (DnaJ heat shock protein family (Hsp40) member C27) | 0.808 | inactive |
| CCL17 (C-C motif chemokine ligand 17) | 0.248 | inactive |
| WHRN (whirlin) | 0.515 | inactive |
| CDC42 (cell division cycle 42) | 0.574 | inactive |
| ANXA6 (annexin A6) | 0.947 | inactive |
| SLC41A3 | -2.65 | active |
| TSPAN4 (tetraspanin 4) | -0.994 | inactive |
| SLITRK6 (SLIT and NTRK like family member 6) | -1.27 | active |
| NELFA (negative elongation factor complex member A) | -1.27 | active |
| TRAP1 (TNF receptor associated protein 1) | -1.02 | active |
| PAQR4 (progestin and adipoQ receptor family member 4) | 1.39 | active |
| SHQ1 (SHQ1, H/ACA ribonucleoprotein assembly factor) | 1.14 | active |
| MADD (MAP kinase activating death domain) | -1.05 | active |
| KRTAP3-3 (keratin associated protein 3-3) | -2.36 | active |
| PHB1 (prohibitin 1) | 1.29 | active |
| XKRY (XK related, Y-linked (pseudogene)) | -1.1 | active |
| MCUB | -2.88 | active |
| CDCP1 (CUB domain containing protein 1) | -0.921 | inactive |
| COPS3 (COP9 signalosome subunit 3) | -1.03 | active |
| DNAJC8 (DnaJ heat shock protein family (Hsp40) member C8) | -2.78 | active |
| CRYBA4 (crystallin beta A4) | -0.9 | inactive |
| IL31 (interleukin 31) | -3.28 | active |
| DRAM1 (DNA damage regulated autophagy modulator 1) | 1.56 | active |
| HNF1B (HNF1 homeobox B) | -4.17 | active |
| CXCL11 (C-X-C motif chemokine ligand 11) | -0.519 | inactive |
| EPO (erythropoietin) | -0.43 | inactive |
| VPS54 (VPS54 subunit of GARP complex) | -0.332 | inactive |
| PAK1IP1 (PAK1 interacting protein 1) | 0.257 | inactive |
| SEC14L4 (SEC14 like lipid binding 4) | 1.88 | active |
| CFD (complement factor D) | 1.22 | active |
| CYP2C18 (cytochrome P450 family 2 subfamily C member 18) | -2.05 | active |
| ST7 (suppression of tumorigenicity 7) | -1.66 | active |
| TSACC (TSSK6 activating cochaperone) | -2.14 | active |
| OSBPL1A (oxysterol binding protein like 1A) | -0.264 | inactive |
| BTN3A1 (butyrophilin subfamily 3 member A1) | -0.04 | inactive |
| NAV3 (neuron navigator 3) | -0.404 | inactive |
| ZNF559 (zinc finger protein 559) | 0.859 | inactive |
| CABP1 (calcium binding protein 1) | -0.87 | inactive |
| KPTN (kaptin, actin binding protein) | 0.554 | inactive |
| CLEC4G (C-type lectin domain family 4 member G) | -0.716 | inactive |
| MYOM2 (myomesin 2) | -0.515 | inactive |
| DDX47 (DEAD-box helicase 47) | 0.99 | inactive |
| PSEN2 (presenilin 2) | -1.81 | active |
| ADSS1 (adenylosuccinate synthase 1) | -2.69 | active |
| TET2 (tet methylcytosine dioxygenase 2) | -1.51 | active |
| FDFT1 (farnesyl-diphosphate farnesyltransferase 1) | 0.709 | inactive |
| H3-3B (H3.3 histone B) | 0.156 | inactive |
| SNRPE (small nuclear ribonucleoprotein polypeptide E) | -1.03 | active |
| IL2RA (interleukin 2 receptor subunit alpha) | -1.81 | active |

18 successive reagents from above:
| gene | z-score vs non-targeting control | Outcome |
| --- | --- | --- |
| RASSF1 (Ras association domain family member 1) | -2.48 | active |
| DVL3 (dishevelled segment polarity protein 3) | -3.11 | active |
| PCDHGA3 (protocadherin gamma subfamily A, 3) | 0.14 | inactive |
| SCAMP3 | 0.523 | inactive |
| CAPN13 (calpain 13) | -1.06 | active |
| ENTPD6 (ectonucleoside triphosphate diphosphohydrolase 6) | -0.52 | inactive |
| DCDC1 (doublecortin domain containing 1) | 0.0881 | inactive |
| LAIR2 (leukocyte associated immunoglobulin like receptor 2) | -1.2 | active |
| CYP2U1 (cytochrome P450 family 2 subfamily U member 1) | -1.15 | active |
| PNKD (PNKD metallo-beta-lactamase domain containing) | -2.82 | active |
| ZNF26 (zinc finger protein 26) | -1.71 | active |
| ARID2 (AT-rich interaction domain 2) | -0.917 | inactive |
| TMEM161B (transmembrane protein 161B) | -1.3 | active |
| CERS3 (ceramide synthase 3) | -1.65 | active |
| MRPS2 (mitochondrial ribosomal protein S2) | 1.21 | active |
| AVPI1 (arginine vasopressin induced 1) | -0.422 | inactive |
| MICU1 (mitochondrial calcium uptake 1) | -0.442 | inactive |
| POR (cytochrome p450 oxidoreductase) | 1.81 | active |
